Anti-infective test results gathered from many reports (values: NIAID ChemDB through PubChem).

All rows: host cell toxicity; endpoint: CC50

CCn: concentration that lowers growth or viability of the cells by n%. Rows are shuffled and stem from different studies.

{"structure": "NC(=O)N=NC(N)=O", "cell line": "VERO", "result": ">200 µM"}
{"structure": "CN(C)CCN1CCCCC1C12CC3CC(CC(C3)C1)C2", "cell line": "MDCK", "result": "616 µM"}
{"structure": "Nc1ncnc2c1ncn2[C@@H]1C[C@H](CO)[C@@H](O)[C@H]1O", "cell line": "VERO E6", "result": "30 µM"}
{"structure": "Nc1nccc2c1ncn2C[C@H]1COP(=O)(O)CO1", "cell line": "PHK", "result": "12.1 µg/mL"}
{"structure": "CC(C)[C@H](NC(=O)OCc1ccccc1)C(=O)N[C@@H](Cc1ccccc1)C(=O)N[C@@H](C)C=O", "cell line": "VERO 76", "result": "43 µM"}
{"structure": "C1CCNC(C23CC4CC(CC(C4)C2)C3)CC1", "cell line": "MDCK", "result": "186 µM"}
{"structure": "Nc1nc2c(ncn2C(C=O)OC(C=O)CO)c(=O)[nH]1", "cell line": "VERO E6", "result": ">1040 µM"}
{"structure": "C1CNC(C23CC4CC(CC(C4)C2)C3)C1", "cell line": "MDCK", "result": "1035 µM"}
{"structure": "Nc1nc(N)c2ncn(CC(CO)OCP(=O)(O)O)c2n1", "cell line": "PHK", "result": "17.3 µg/mL"}
{"structure": "NC(=O)c1[nH]nc([C@@H]2O[C@H](CO)[C@@H](O)[C@H]2O)c1O", "cell line": "VERO 76", "result": "32 µM"}
{"structure": "CC(=O)Nc1cc2c(O)c(N=Nc3ccc(S(N)(=O)=O)cc3)c(S(=O)(=O)O)cc2cc1S(=O)(=O)O", "cell line": "VERO", "result": ">400 µM"}
{"structure": "Nc1nccc2c1ncn2[C@@H]1C=C(CO)[C@@H](O)[C@H]1O", "cell line": "VERO E6", "result": ">1700 µM"}
{"structure": "Nc1nc2c(ncn2C[C@@H]2COP(=O)(O)CO2)c(=O)[nH]1", "cell line": "PHK", "result": "13.6 µg/mL"}
{"structure": "Nc1nc(=O)n([C@H]2O[C@@H](CO)[C@H](O)[C@@H]2O)cc1Cl", "cell line": "VERO 76", "result": ">0.25 µM"}
{"structure": "C1CCN(CCN2CCCCC2C23CC4CC(CC(C4)C2)C3)CC1", "cell line": "MDCK", "result": "561 µM"}
{"structure": "Nc1nc(NC2CCCC2)c2ncn(CCOCP(=O)(O)O)c2n1", "cell line": "PHK", "result": "7.1 µg/mL"}
{"structure": "Nc1nc2c(ccn2[C@H]2C[C@H](O)[C@@H](CO)O2)c(=O)[nH]1", "cell line": "VERO E6", "result": ">100 µM"}
{"structure": "Nc1cc(OCCOCP(=O)(O)O)nc(N)n1", "cell line": "PHK", "result": "21.7 µg/mL"}
{"structure": "O=C(Nc1ccn([C@@H]2O[C@H](CO)C[C@H]2O)c(=O)n1)c1ccccc1", "cell line": "VERO 76", "result": ">100 µM"}
{"structure": "[N-]=[N+]=NCC(Cn1cnc2c(N)nc(N)nc21)OCP(=O)(O)O", "cell line": "PHK", "result": ">50 µg/mL"}
{"structure": "Nc1nccc2c1ncn2[C@@H]1C=C(CO)[C@@H](O)[C@H]1O", "cell line": "VERO E6", "result": ">380 µM"}
{"structure": "Nc1ncnc2c1ncn2C[C@@H](CO)OCP(=O)(O)O", "cell line": "PHK", "result": "16.4 µg/mL"}
{"structure": "CCOC(=O)C12CC3CC(CC(C3)C1)C2", "cell line": "MDCK", "result": "196 µM"}

For reference, 2 entries again:

structure	cell line	result
C1CCNC(C23CC4CC(CC(C4)C2)C3)CC1	MDCK	186 µM
CN(C)CCN1CCCCC1C12CC3CC(CC(C3)C1)C2	MDCK	616 µM